Experimental data taken from patent US20150118736A1, “METHOD OF DEGRADING ORGANIC COMPOUNDS” (Agency for Science, Technology and Research, priority 2012, published 2015).

What was measured:
Enterobacter sp. FDS8 = test: Detoxification of furfural and HMF in lignocellulose hydrolysate by Enterobacter sp. FDS8 cells (HPLC); settings: for concentration in lignocellulose hydrolysate after detoxification: 3 h, 3.4 g/L cells, 30 °C
Amorphotheca resinae ZN1 = settings: Table 4; 25 °C, detoxification time 96 h; cited from earlier work
[1] = tested on: Ureibacillus thermosphaericus; settings: Table 4; 50 °C, detoxification time 24 h; cited from earlier work
[2] = Table 7, consecutive detoxification step 1
[3] = Table 4, detoxification temperature 30 °C, detoxification time 3 h

Structure (SMILES)	concentration in lignocellulose hydrolysate after detoxification (Enterobacter sp. FDS8; Table 2, 200 mL hydrolysate) [g/L]	concentration in lignocellulose hydrolysate after detoxification (Enterobacter sp. FDS8; Table 3, 20 ml hydrolysate) [g/L]	concentration in lignocellulose hydrolysate after detoxification (Enterobacter sp. FDS8; [2]) [g/L]	degradation rate (Enterobacter sp. FDS8; Control (without nitrogen resource)) [mg/L/h]	degradation rate (Enterobacter sp. FDS8; NaNO3 5 g/L + (NH4)2SO4 5 g/L) [mg/L/h]	degradation rate (Enterobacter sp. FDS8; Potato extract 10 g/L) [mg/L/h]	Specific degradation rate (Enterobacter sp. FDS8; [3]) [mg/g cell/h]	degradation rate (Enterobacter sp. FDS8; [3]) [mg/L/h]	degradation rate (Enterobacter sp. FDS8; Yeast extract 10 g/L) [mg/L/h]	degradation rate (Enterobacter sp. FDS8; inoculum size of 4.6 g/L (FIG. 4)) [mg/L/h]	degradation rate (Amorphotheca resinae ZN1) [mg/L/h]	Specific degradation rate [1] [mg/g cell/h]	degradation rate [1] [mg/L/h]
O=C[C@@H](O)[C@H](O)[C@H](O)CO [Arabinose]	1.94	1.69	1.85										
O=Cc1ccc(CO)o1 [HMF, 5-(hydroxymethyl)-2-furaldehyde]	0	0	0	93 ± 12	53 ± 12	93 ± 6	40	123	97 ± 12	123	9	3	9
O=C[C@H](O)[C@@H](O)[C@H](O)CO [Xylose]	17.65	16.86	16.9										
